From US20060193771A1 come the findings set out here.

In experiment [1] the target is human CD30, native, expressed on cells (human). The experiment in a line: cell-based or functional assay.
For experiment [2], the target named is recombinant soluble CD30 (sCD30) produced in E. coli (human). The experiment in a line: affinity of the dsFv-PE38 immunotoxin; taken as BIAcore on sCD30.
Experiment [3] has the same target. The experiment in a line: affinity of the dsFv-PE38 immunotoxin, second day; taken as BIAcore on sCD30.

In experiment [1], “T13 dsFv-PE38 immunotoxin (from UniProt P11439 278-389)” registered a Cytotoxicity (IC50, ng/mL), A431/CD30 cells of 0.7 ng/mL; a Cytotoxicity (IC50, ng/mL), Karpas 299 cells of 18 ng/mL; a Cytotoxicity (IC50, ng/mL), SUDHL1 cells of 27 ng/mL; a Cytotoxicity (IC50, ng/mL), SUDHL1 cells, second day of 3 ng/mL. For the same substance, the Cytotoxicity of dsFv immunotoxin (IC50, ng/ml), A431/CD30 cells in experiment [1] turned out to be 0.7 ng/mL. For the same substance, the dissociation constant Kd in experiment [2] came to 0.024 µM.

In experiment [1], “T104 dsFv-PE38 immunotoxin (from UniProt P11439 278-389)” returned a Cytotoxicity (IC50, ng/mL), A431/CD30 cells of 14 ng/mL and a Cytotoxicity (IC50, ng/mL), Karpas 299 cells of 230 ng/mL. Further, in experiment [3], the Kd was 0.07 µM.

For the substance “T105 dsFv-PE38 immunotoxin (from UniProt P11439 278-389)”, in experiment [1], the Cytotoxicity (IC50, ng/mL), A431/CD30 cells was found to be 0.6 ng/mL; the Cytotoxicity (IC50, ng/mL), Karpas 299 cells turned out to be 17 ng/mL; the Cytotoxicity (IC50, ng/mL), SUDHL1 cells worked out at 8 ng/mL; the Cytotoxicity (IC50, ng/mL), SUDHL1 cells, second day stood at 2.8 ng/mL. The substance further came in with a Cytotoxicity of dsFv immunotoxin (IC50, ng/ml), A431/CD30 cells in experiment [1] of 0.6 ng/mL. Besides, the Kd in experiment [2] amounted to 0.012 µM.

“T405 dsFv-PE38 immunotoxin (from UniProt P11439 278-389)”: in experiment [1], the Cytotoxicity (IC50, ng/mL), A431/CD30 cells amounted to 200 ng/mL; the Cytotoxicity (IC50, ng/mL), Karpas 299 cells was above 100 ng/mL; the Cytotoxicity (IC50, ng/mL), SUDHL1 cells was above 100 ng/mL. In experiment [2], the Kd came out at 0.31 µM.

As for “T408 dsFv-PE38 immunotoxin (from UniProt P11439 278-389)”, in experiment [1], the Cytotoxicity (IC50, ng/mL), A431/CD30 cells is 80 ng/mL and the Cytotoxicity (IC50, ng/mL), Karpas 299 cells was 340 ng/mL. The Kd in experiment [3] was 0.33 µM.

In experiment [1], “T420 dsFv-PE38 immunotoxin (from UniProt P11439 278-389)” showed a Cytotoxicity (IC50, ng/mL), A431/CD30 cells of 1.5 ng/mL; a Cytotoxicity (IC50, ng/mL), Karpas 299 cells of 53 ng/mL; a Cytotoxicity (IC50, ng/mL), SUDHL1 cells of 18 ng/mL; a Cytotoxicity of dsFv immunotoxin (IC50, ng/ml), A431/CD30 cells of 1.5 ng/mL. For the same substance, in experiment [2], the Kd came out at 0.058 µM.

Consider “T427 dsFv-PE38 immunotoxin (from UniProt P11439 278-389)”, for which, in experiment [1], the Cytotoxicity (IC50, ng/mL), A431/CD30 cells was 2.1 ng/mL; the Cytotoxicity (IC50, ng/mL), Karpas 299 cells was determined as 41 ng/mL; the Cytotoxicity (IC50, ng/mL), SUDHL1 cells amounted to 13 ng/mL. For the same substance, the Kd in experiment [2] is 0.036 µM.
